Results of unrelated studies side by side (data: NIAID ChemDB).

All rows: tests in culture; organism: HIV-1

ECn: concentration that inhibits the pathogen or its effect by n%. An empty or dashed field is not shown. Neighbouring rows are from separate reports.

SMILES | cell line | strain or isolate | measure | read by | mutations | result
Cc1cc(S(N)(=O)=O)ccc1NC(=O)COc1ccccc1NS(=O)(=O)c1ccccc1 | C8166 | IIIB | EC50 | syncytia |  | 14.5 µM
Cc1cn([C@H]2CC[C@H](CO)[Se]2)c(=O)[nH]c1=O | MT-4 | IIIB | EC50 | MTT |  | >100 µM
COC1CCC(OC2CC(C3(C)CCC4(CC(O)C(C)C(C(C)/C=C(\C)C(=O)C(C)CC(C)C(=O)O)O4)O3)OC3(OC(C4OC(O)(CO)C(C)CC4C)CC3C)C2C)OC1C | H9 | IIIB | EC50 | RT activity |  | 7.12 µg/mL
CC(C)c1c(CO)cn(Cc2ccccn2)c1Sc1cc(Cl)cc(Cl)c1 | MT-4 | IIIB | EC50 | cytopathic effect / MTT |  | 3 µM
COc1ccc(C=Nc2ccc(N3C(=O)c4ccc(Cl)cc4C3=O)c(C)c2)cc1 | MT-4 | IIIB | EC50 | MTT / absorbance |  | 0.138 µM
C=CCN(C(=O)OCc1ccc([N+](=O)[O-])cc1)C1CCN(CCC(Cn2c(CC)nc3ccccc32)c2ccccc2)CC1 | MAGI + MAGI-CCR5 | BaL | EC50 | β-galactosidase |  | <3 µM
Cc1ccc(C(=O)Nc2ccc(N3C(=O)c4ccc(Cl)cc4C3=O)c(C)c2)cc1 | MT-4 | IIIB | EC50 | MTT / absorbance |  | 0.017 µM
CN(CC(CCN1CCC(NC(=O)NCc2ccccc2)CC1)c1ccccc1)S(=O)(=O)c1ccccc1 | PBMC | YU2 | EC95 | p24 |  | 0.1 µM
C=C1[C@H]2CCC3C(CCC4[C@@]3(C)CCC[C@@]4(C)C(=O)O)(C2)[C@@H]1O | 1A2 | MC99 (Tat/Rev defective) | EC50 | syncytia |  | 33.9 µg/mL
C=CCN(C(=O)NCc1ccc([N+](=O)[O-])cc1)C1CCN(CC[C@H](CN(C)S(=O)(=O)c2ccccc2)c2ccccc2)CC1 | PBMC | YU2 | EC95 | p24 |  | 0.25 µM
CC(C)c1c(CO)cn(Cc2ccncc2)c1Sc1cccc(Cl)c1 | MT-4 | IIIB | EC50 | cytopathic effect / MTT |  | 0.1 µM
C=C1[C@H]2CCC3C(CCC4[C@@]3(C)CCC[C@@]4(C)C(=O)O)(C2)[C@@H]1OC(C)=O | 1A2 | MC99 (Tat/Rev defective) | EC50 | syncytia |  | 30.8 µg/mL
CC(C)=CCN1c2cc(Cl)cc3[nH]c(=S)n(c23)C[C@@H]1C | MT-4 |  | EC50 |  | RT-M41L T215Y K103N | <0.8 µM
COc1ccc(S(=O)(=O)Nc2ccccc2OCC(=O)Nc2ccc(S(N)(=O)=O)cc2C)cc1 | C8166 | IIIB | EC50 | syncytia |  | 26.6 µM
CCOC(=O)c1cn(Cc2ccncc2)c(Sc2cccc(C)c2)c1C(C)C | MT-4 | IIIB | EC50 | cytopathic effect / MTT |  | 1.2 µM
C=CCN(C(=O)OCc1ccc([N+](=O)[O-])cc1)C1CCN(CCC(C)(Cn2cnc3ccccc32)c2ccccc2)CC1 | MAGI + MAGI-CCR5 | BaL | EC50 | β-galactosidase |  | <1 µM
Nc1ccn([C@@H]2CC[C@H](CO)[Se]2)c(=O)n1 | MT-4 | IIIB | EC50 | MTT |  | >100 µM
CC(C)c1c(COC(N)=O)cn(Cc2ccncc2)c1Sc1cccc(Cl)c1 | MT-4 | IIIB | EC50 | cytopathic effect / MTT |  | 0.4 µM
CC(C)[C@H](NC(=O)OCc1ccccc1)C(=O)N[C@@H](Cc1ccccc1)C(=O)C(F)(F)[C@H](Cc1ccccc1)NC(=O)[C@@H](NC(=O)OCc1ccccc1)C(C)C | MT-4 | IIIB | EC50 | cytopathic effect / MTT |  | >100 µM
Cc1cc(C)c(Oc2cc(Nc3ccc(C#N)cc3)ncc2C(=O)NCc2cn(Cc3cccc([N+](=O)[O-])c3)nn2)c(C)c1 | MT-4 | IIIB | EC50 | MTT | WT | 0.077 µM
CC(C)[C@H](NC(=O)CCc1ccccn1)C(=O)N[C@@H](Cc1ccccc1)C(=O)C(F)(F)[C@H](Cc1ccccc1)NC(=O)[C@H](NC(=O)CCc1ccccn1)C(C)C | MT-4 | IIIB | EC50 | cytopathic effect / MTT |  | 0.05 µM
COC(=O)CCC/C=C(\c1ccc(OC)c(C(=O)OC)c1)c1cc(Cl)c(OC)c(C(=O)OC)c1 | CEM + CEM-SS |  | EC50 | p24 |  | 0.08 µM
Cc1cccc(COC(=O)N[C@H](C(=O)N[C@@H](Cc2ccccc2)C(=O)C(F)(F)[C@H](Cc2ccccc2)NC(=O)[C@@H](NC(=O)OCc2cccc(C)n2)C(C)C)C(C)C)n1 | MT-4 | IIIB | EC50 | cytopathic effect / MTT |  | 0.007 µM
CC[C@@H](C(=O)[C@@H](C)[C@@H](O)[C@H](C)CCc1ccc(C)c(O)c1C(=O)O)[C@H]1O[C@](CC)([C@H]2CC[C@](O)(CC)[C@H](C)O2)C[C@@H]1C | H9 | IIIB | EC50 | RT activity |  | 2.37 µg/mL
NS(=O)(=O)c1ccc(NC(=O)COc2ccc(Cl)cc2NS(=O)(=O)c2ccc([N+](=O)[O-])cc2)cc1 | C8166 | IIIB | EC50 | syncytia |  | 3.124 µM
Nc1ccn([C@H]2CC[C@H](CO)[Se]2)c(=O)n1 | MT-4 | IIIB | EC50 | MTT |  | >100 µM
C=CCN(C(=O)OCc1ccc([N+](=O)[O-])cc1)C1CCN(CCC(CN(C)S(=O)(=O)c2ccccc2)c2ccccc2)CC1 | PBMC | YU2 | EC95 | p24 |  | 0.2 µM
COC(=O)CCC/C=C(\c1cc(C)c(OC)c(C(=O)OC)c1)c1cc(Cl)c(OC)c(C(=O)OC)c1 | CEM + CEM-SS |  | EC50 | p24 |  | 0.02 µM
O=c1[nH]cnc2c1ncn2[C@H]1CC[C@@H](CO)O1 | MT-2 | LAI | EC50 |  |  | 4.3 µM
CCOC(=O)c1cn(Cc2cccnc2)c(Sc2cc(Cl)cc(Cl)c2)c1C(C)C | MT-4 | IIIB | EC50 | cytopathic effect / MTT |  | >200 µM
C=CCN(C(=O)Cc1ccc([N+](=O)[O-])cc1)C1CCN(CCC(CN(C)S(=O)(=O)c2ccccc2)c2ccccc2)CC1 | PBMC | YU2 | EC50 | p24 |  | <0.05 µM
CO[C@@H]1C[C@@H](C[C@H]2CC[C@H](C)[C@H]([C@@H](C)C(=O)O)O2)O[C@]2(O[C@](C)([C@H]3CC[C@@](C)([C@@H]4O[C@@H]([C@H]5O[C@@](O)(CO)[C@H](C)C[C@@H]5C)C[C@@H]4C)O3)C[C@H]2C)[C@@H]1C | H9 | IIIB | EC50 | RT activity |  | 0.68 µg/mL
Cc1cn([C@H]2C[C@H](N=[N+]=[N-])[C@@H](CO)O2)c(=O)[nH]c1=O | PBL | CLADE F | EC50 | p24 |  | 0.002 µM
CCOC(=O)c1cn(Cc2ccncc2)c(Sc2cccc(Cl)c2)c1C(C)C | MT-4 | IIIB | EC50 | cytopathic effect / MTT |  | 2.1 µM
Cc1cc(N=Cc2ccc(O)cc2)ccc1N1C(=O)c2ccc(Cl)cc2C1=O | MT-4 | IIIB | EC50 | MTT / absorbance |  | 0.263 µM
C[C@@]12CCC[C@@](C)(C(=O)O)C1CC[C@@]13C[C@H](CCC12)[C@](C)(O)C3 | 1A2 | MC99 (Tat/Rev defective) | EC50 | syncytia |  | 66.5 µg/mL
CCOC(=O)c1cn(Cc2c(F)cccc2F)c(Sc2cc(Cl)cc(Cl)c2)c1C(C)C | MT-4 | IIIB | EC50 | cytopathic effect / MTT |  | >200 µM
CC(C)[C@H](NS(=O)(=O)CCc1ccccn1)C(=O)N[C@@H](Cc1ccccc1)C(=O)C(F)(F)[C@H](Cc1ccccc1)NC(=O)[C@@H](NS(=O)(=O)CCc1ccccn1)C(C)C | MT-4 | IIIB | EC50 | cytopathic effect / MTT |  | 0.56 µM

For reference, 2 entries again:

SMILES | cell line | strain or isolate | measure | read by | mutations | result
Nc1ccn([C@@H]2CC[C@H](CO)[Se]2)c(=O)n1 | MT-4 | IIIB | EC50 | MTT |  | >100 µM
CC[C@@H](C(=O)[C@@H](C)[C@@H](O)[C@H](C)CCc1ccc(C)c(O)c1C(=O)O)[C@H]1O[C@](CC)([C@H]2CC[C@](O)(CC)[C@H](C)O2)C[C@@H]1C | H9 | IIIB | EC50 | RT activity |  | 2.37 µg/mL